Pooled drug test results. Numbers come from NIAID ChemDB, via PubChem.

Common to all: growth or infection tests; agent: Candida albicans

Conditions beyond the fields shown may differ between rows. ECn: concentration that inhibits the pathogen or its effect by n%. Blank or dashed fields: not listed here. A number after MIC or MFC names an inhibition level or a share of isolates.

smiles	strain	conditions	method	measure	value
CCCCCOc1ccc(-c2ccc(-c3ccc(C(=O)N[C@H]4CCCNC(=O)C5C[C@H](N)CN5C(=O)C(C(C)O)NC(=O)C(OCc5ccccc5)NC(=O)C5CC(O)CN5C(=O)C(C(C)O)NC4=O)cc3)cc2)cc1	ATCC 10231			MIC	1.56 µg/mL
Fc1ccc(COc2ccc(C(c3cccc4ccccc34)n3ccnc3)cc2)c(F)c1.O=[N+]([O-])O	16 strains			Mean MIC	≥256 µg/mL
Cc1nc(-c2cnccn2)[nH][n+]1-c1ccccc1			broth dilution	MIC	>256 µg/mL
O=C(Nc1ccc(Cn2ccnc2)cc1)c1cccc(Cl)c1	27 strains			Mean MIC	101 µg/mL
Cc1ccc(C(c2nccc3ccccc23)n2ccnc2)cc1	44 strains			Mean MIC	101.2 µg/mL
COc1ccc(C(C(Cc2ccc(Cl)cc2Cl)c2ccc(Cl)cc2)n2ccnc2)cc1	28 strains			EC50	<256 µg/mL
CCCCCCn1sc2ncccc2c1=O				MIC	30 µg/mL
COc1cc(C(=O)Nc2cccc(Cn3ccnc3)c2)cc(OC)c1OC	27 strains			Mean MIC	133 µg/mL
O=c1c2cccnc2sn1CCCc1ccccc1				MIC	20 µg/mL
CC[C@@H](c1ccc(Cl)cc1)[C@@H](c1ccc(OC)cc1)n1cnnc1	28 strains			MIC50	256 µg/mL
Cc1ccc(-c2c3c(N)c4c(nc3nc3c2c(C)nn3-c2ccccc2)CCCCC4)cc1	CCC 128		broth dilution / absorbance	MIC100	125 µg/mL
O=C(Nc1ccccc1Cn1ccnc1)c1cc([N+](=O)[O-])cc([N+](=O)[O-])c1	27 strains			Mean MIC	11.23 µg/mL
CCCCn1sc2ncccc2c1=S				MIC	30 µg/mL
NS(=O)(=O)c1nnc(NS(=O)(=O)c2ccc(NC(=O)NS(=O)(=O)c3ccc(Cl)cc3)cc2)s1	C316			MIC	86 µg/mL
COc1cncc(-c2n[nH]c(-c3cnccn3)n2)n1			broth dilution	MIC	>256 µg/mL
COc1ccc(C(O)C(Cc2ccc(Cl)cc2Cl)c2ccc(Cl)cc2)cc1	28 strains			EC50	>256 µg/mL
O=[N+]([O-])c1cccc(C=Nc2cccc(Cn3ccnc3)c2)c1	27 strains			Mean MIC	82.18 µg/mL
Fc1ccc(COc2ccc(C(c3ccc(-c4ccccc4)cc3)n3ccnc3)cc2)c(F)c1.O=[N+]([O-])O	17 strains			MIC90	≥256 µg/mL
Cc1ccc(-c2c3c(N)c4c(nc3nc3c2c(C)nn3-c2ccccc2)CCC4)cc1	CCC 129		broth dilution / absorbance	MIC80	31.2 µg/mL
O=C(Nc1ccc(Cn2ccnc2)cc1)c1ccc(F)cc1	27 strains			Mean MIC	142 µg/mL
NN=C(N)c1cncc(Cl)n1			broth dilution	MIC	128 µg/mL
Fc1ccccc1C(c1nccc2ccccc12)n1ccnc1	44 strains			Mean MIC	193 µg/mL
O=C(c1c[nH]c2ccccc12)[C@H](O)CO	ATCC 32354		turbidity	MIC	>128 µg/mL
Cc1nn(-c2ccccc2)c2nc3nc4c(c(N)c3c(-c3ccc(Cl)cc3)c12)CCCCC4	ATCC 10231		broth dilution / absorbance	MIC100	125 µg/mL
COc1ccc(C(Cc2ccc(Cl)cc2)n2cncn2)cc1	28 strains			MIC90	128 µg/mL
CCCN=c1ssc2ncccc12				MIC	20 µg/mL
Clc1ccc(/C(Cn2ccnc2)=N/OCc2ccccc2)cc1	CDCB385			MIC	4 µg/mL
CCCCCOc1ccc(-c2ccc(-c3ccc(C(=O)N[C@H]4CCCNC(=O)[C@@H]5C[C@H](NC(=O)c6ccccc6)CN5C(=O)[C@H]([C@@H](C)O)NC(=O)[C@H](CCc5ccc(O)cc5)NC(=O)[C@@H]5C[C@@H](O)CN5C(=O)[C@H]([C@@H](C)O)NC4=O)cc3)cc2)cc1	ATCC CCH442			MIC	6.25 µg/mL
NS(=O)(=O)c1nnc(NS(=O)(=O)c2ccc(NC(=O)NS(=O)(=O)c3ccc(F)cc3)cc2)s1	C316			MIC	>100 µg/mL
CCC(c1ccc(OC)cc1)C(c1ccc(OC)cc1)n1cncn1	28 strains			EC50	>256 µg/mL
Clc1ccc(CNc2cccc(Cn3ccnc3)c2)cc1	27 strains			Mean MIC	41.83 µg/mL
c1ccc(-[n+]2cnc(-c3cnccn3)[nH]2)cc1			broth dilution	MIC	>256 µg/mL
O=C(CN1CCOCC1)Nc1nc(-c2ccccc2)cc(-c2ccc(F)cc2)n1	CaCYP51			MIC	25 µg/mL
Clc1ccc(/C(Cn2ccnc2)=N/OCc2ccccc2)c(Cl)c1	CA6			MIC	4 µg/mL
Cc1c(O)cccc1C(=O)N[C@@H](CSc1ccccc1)[C@H](O)CN1C[C@H]2CCCC[C@H]2C[C@H]1C(=O)NC(C)(C)C	I116A			MIC	>64 µg/mL
Cc1ccc(-c2c3c(N)c4c(nc3nc3c2c(C)nn3-c2ccccc2)CCCC4)cc1	ATCC 10231		broth dilution / absorbance	MIC100	31.2 µg/mL
C[C@H]1[C@H](O)[C@@H](C)/C=C/C=C/C=C/C=C/C=C/C=C/C=C/[C@H](O[C@@H]2O[C@H](C)[C@@H](O)[C@H](N)[C@@H]2O)C[C@@H]2O[C@](O)(C[C@@H](O)C[C@@H](O)CC[C@H](O)[C@@H](O)C[C@@H](O)CC(=O)O[C@H]1C)C[C@H](O)[C@H]2C(=O)O			broth dilution	MIC	25 µg/mL
OC(Cn1cncn1)(Cn1cncn1)c1ccc(F)cc1F	3028			MIC	50 µg/mL
Fc1ccccc1COc1ccc(C(c2ccc3ccccc3c2)n2ccnc2)cc1	17 strains			Mean MIC	74.8 µg/mL
CCc1nc(CCC(=O)O)cnc1CCC(=O)O	ATCC 10231		turbidity	MIC	>128 µg/mL
CCC(c1ccc(Cl)cc1)C(O)c1ccc(OC)cc1	28 strains			EC50	>256 µg/mL
CCC(C)n1ncn(-c2ccc(N3CCN(c4ccc(OC[C@H]5CO[C@](Cn6cncn6)(c6ccc(Cl)cc6Cl)O5)cc4)CC3)cc2)c1=O	19 strains (fluconazole-susceptible)			MIC90	0.25 µg/mL
CC(C)=C[C@H]1C[C@](C)(O)C2C3CCC4[C@@]5(C)CCC[C@](C)(O[C@H]6OC[C@H](O)[C@H](OC7O[C@H](CO)[C@@H](O)[C@H](O)[C@H]7O)[C@H]6O[C@H]6C[C@H](CO)[C@@H](O)[C@@H]6O)C5CC[C@@]4(C)[C@@]34CO[C@@]2(C4)O1				MIC	50 µg/mL
CCCCNC(=S)c1ccc[nH]c1=S				MIC	25 µg/mL
CC(=O)OCC1C=C(c2ccc(Cl)c(Cl)c2)C(=O)O1	9 isolates fluconazole-resistant			MIC50	2 µg/mL
Clc1ccc(C(Cn2ccnc2)OCc2csc3c(Cl)cccc23)c(Cl)c1	63 isolates	24 h	absorbance	MIC90	2 µg/mL
Cc1ccccc1S(=O)(=O)NC(=O)Nc1ccc(S(=O)(=O)Nc2nnc(S(N)(=O)=O)s2)cc1	C316			MIC	82 µg/mL
O=C(Nc1ccccc1Cn1ccnc1)c1ccc(Br)cc1	27 strains			Mean MIC	156 µg/mL
CCCCCOc1ccc(-c2ccc(-c3ccc(C(=O)N[C@H]4CCCNC(=O)C5C[C@H](N)CN5C(=O)C(C)NC(=O)C(CCc5ccc(O)cc5)NC(=O)C5C[C@@H](O)CN5C(=O)C(C(C)O)NC4=O)cc3)cc2)cc1	ATCC 62376			MIC	0.39 µg/mL
Clc1ccc(/C(Cn2ccnc2)=N\OCc2ccccc2)cc1	CA7			MIC	16 µg/mL
S=C(NCCCc1ccccc1)c1ccc[nH]c1=S				MIC	10 µg/mL
CN1CCN(c2ccc3nc(-c4ccc5nc(-c6ccc(O)cc6)[nH]c5c4)[nH]c3c2)CC1	RO109			MIC50	7 µM
Fc1ccc(/C(Cn2ccnc2)=N/OCc2ccccc2)cc1	CA6			MIC	32 µg/mL
CC(O)C1NC(=O)C(CCc2ccc(O)cc2)NC(=O)C2C[C@@H](O)CN2C(=O)C(C(C)O)NC(=O)[C@@H](NC(=O)c2ccc(N3CCN(c4ccc(O)cc4)CC3)cc2)CCCNC(=O)C2C[C@H](N)CN2C1=O	ATCC 10231			MIC	25 µg/mL
CC(C)(O)c1cn(-c2ccc(Cl)cc2)nn1	URM 4260		broth dilution	MIC	128 µg/mL
CCCCCOc1ccc(-c2ccc(-c3ccc(CN[C@H]4CCCNC(=O)C5C[C@H](N)CN5C(=O)C(C(C)O)NC(=O)C(CCc5ccc(O)cc5)NC(=O)C5C[C@@H](O)CN5C(=O)C(C(C)O)NC4=O)cc3)cc2)cc1	ATCC CCH442			MIC	0.2 µg/mL
CCCCCN=c1ssc2ncccc12				MIC	30 µg/mL
CC(=O)OCC1C=C(c2cccc(Cl)c2)C(=O)O1	25 isolates			MIC90	4 µg/mL
c1ccc(CO/N=C(/Cn2ccnc2)c2ccccc2)cc1	CA6			MIC	>128 µg/mL

The first 8 rows once more:

smiles	strain	conditions	method	measure	value
CCCCCOc1ccc(-c2ccc(-c3ccc(C(=O)N[C@H]4CCCNC(=O)C5C[C@H](N)CN5C(=O)C(C(C)O)NC(=O)C(OCc5ccccc5)NC(=O)C5CC(O)CN5C(=O)C(C(C)O)NC4=O)cc3)cc2)cc1	ATCC 10231			MIC	1.56 µg/mL
Fc1ccc(COc2ccc(C(c3cccc4ccccc34)n3ccnc3)cc2)c(F)c1.O=[N+]([O-])O	16 strains			Mean MIC	≥256 µg/mL
Cc1nc(-c2cnccn2)[nH][n+]1-c1ccccc1			broth dilution	MIC	>256 µg/mL
O=C(Nc1ccc(Cn2ccnc2)cc1)c1cccc(Cl)c1	27 strains			Mean MIC	101 µg/mL
Cc1ccc(C(c2nccc3ccccc23)n2ccnc2)cc1	44 strains			Mean MIC	101.2 µg/mL
COc1ccc(C(C(Cc2ccc(Cl)cc2Cl)c2ccc(Cl)cc2)n2ccnc2)cc1	28 strains			EC50	<256 µg/mL
CCCCCCn1sc2ncccc2c1=O				MIC	30 µg/mL
COc1cc(C(=O)Nc2cccc(Cn3ccnc3)c2)cc(OC)c1OC	27 strains			Mean MIC	133 µg/mL